Reference: the supplement of paper PMC9931576
Where a chain is given by its changes, count along the chain named. Human monoclonal antibodies against the spike receptor-binding domain (heavy:light variable regions). IC50 against pseudoviruses bearing the spike of naturally observed variants; lower = stronger; >10 µg/ml means not reached at the top dose. No active / inactive call. The stated detection limit is 0.0005 µg/ml; values near or below 0.001 µg/ml lie at the floor of the assay.

B1: BD56-1520 (protein)
chain 1: EVQVVESGGGLVQPGRSLRLSCTASGFTFDDYAMHWVRQAPGKGLEWVSGITWNSGTIGYADSVKGRFIISRDNAKNSLNLQMNSLRPEDTALYFCAKDMGKDDYDFLTGFRDWGQGTLVTVSS
chain 2: QSVLTQPPSASGTPGQRVSISCSGSSSNIGSNTVNWYQQLPGTAPKLLIYRNNQRPSGVPDRFSGSKSGTSASLAISGLQSEDEADYYCAAWDDSLYVFGTGTKVTVL
B2: BD56-1541 (protein)
chain 1: EVQLVQSGVEVRKPGESLRISCKASGYMFTSHWIAWVRQMPGKGLEWMGIIYPYDSDTRYSPSFQGQVTISADQSITTAYLQWSSLKASDTALYYCARQDTYWYNFWGQGTLVTVSS
chain 2: SSELTQDPAVSVALGQTVRITCQGDSLRSYYASWYQQKPGQAPVLVKYDNNNRPSGIPDRFSGSNSGNTASLTITGAQAEDEADYYCQSRDSSGNHLVFGGGTKLTVL
B3: BD56-1518 (protein)
chain 1: QVQLQESGPGLVKPSQTLSLTCTVSGGSINSGGHYWSWIRQHPGKGLEWIGYISYTGSTYYNPSLRSRVAISADTSKNQFSLRLSSVTAADTAVYFCARGVGQHSDPFDYWGQGTLVTVSS
chain 2: DIQMTQSPSSVSASVGDRVTITCRASQGIGNWLAWYQQKPEKAPKLLIYVASRLQSGVPSRFSGSGSGTDFTLTISSLQPEDFATYYCQQANSFPLAFGQGTKVEIK
B4: BD56-1464 (protein)
chain 1: QLQLVESGGGVVQPGRSLRLSCAASGFTFSRFGMNWVRQAPGKGLEWVAVIWYDGTKRYYGDSVKGRFTITRDTSKTTLHLQMNSLRVEDTAVYYCARSLTYFDVLTGSERFDAFDVWGQGTMVTVSS
chain 2: DIQMTQSPSTLSASVGDRVTITCRASQSISRWLAWYQQKPGKAPKLLIYEASTLESGVPSRFSGSGSGTEFTLTISSLQPDDFATYYCQQYNTSSYTFGQGTKLEIK
B5: BD56-1539 (protein)
chain 1: QVQLVQSGAEVKKPGASVKVSCKASGYTFSSQYLHWVRQAPGQGLEWMGIINPSGGSTSYAQKFQGRVTMTSDTSTSTVYMELSGLRSEDTAVYYCARDWAYIPATMAFDTWGQGTLVTVSS
chain 2: B4 chain 2 with R31S, W32R, E50K, T53S, S56T, Q90H, T93S, S94Y
B6: BD56-1540 (protein)
chain 1: QVQLVESGGGVVQPGRSLRLSCVASGFTFSNYGMHWVRQAPGKGLEWVAVILYDGSNKYYADSVKGRFTISRDNSKNTLYLQMNSLRAEDTAVYYCAKVLGPYCSAGNCYSGYFDYWGQGTLVTVSS
chain 2: B4 chain 2 with R31S, K39R, A51T, T53S, S94Y, Y96N
B7: BD56-1482 (protein)
chain 1: EVQLVESGGGLVQPGGSLRLSCVASGITVSSNYMTWVRQAPGKGLEWVSVIYPGGSTFYADSLQGRFTVSRHDSKNTLFLQMDSLRPDDTGVYFCARDLVVSGMDVWGQGTTVTVAS
chain 2: DIQLTQSPSFLSASVGDRVTITCRASQGISSYLAWYQQKPGKAPKLLIYAASTLQSGVPSRFSGSGSGTEFTLTVSSLQPEDFATYYCQQLDSSPPYTFGQGTKLEIK
B8: BD56-1521 (protein)
chain 1: QVQLVQSGAEVKKPGASVRVSCRASGYRFTTYGFSWVRQAPGQGLEWMGWISAYNGNKQYAQRLQGRVTMTTDTSTNTAYMELRSLRFDDTAVYYCARDFGEISGSENFDFWGQGTLVSVSS
chain 2: EIVLTQSPATLSLSPGERANLSCRASQSVSIYLAWFQQKPGQAPRLLIYHASNRATGIPARFSGSGSGTDFTLTISSLEPEDFAVYYCQLRSNWPSFGQGTRLEIK
B9: BD56-1474 (protein)
chain 1: QVQLVQSGAEVKKPGASVKVSCKASGYTFTNYYMHWVRQAPGQGLEWMGIINPSDGSTNYAQKSQGRVTMTRDTSTSTVYLELSSLTSEDTALYYCARSMYSTSSEGYYYYYYMDIWGKGTTVTVSS
chain 2: QSALTQPASVSGSPGQSITISCTGTNSDVGVYNYVSWYQQHPGKAPKLMMYDVGKRPSGVSSRFSGSKSVNTASLTISGLQAEDEADYYCSSWTSSSTHVVFGGGTRLTVL
B10: BD56-1473 (protein)
chain 1: EVQLVESGGGLVQPGRSLRLSCAASGFTFEDYAMHWVRHAPGLGLEWVSGIDWNGGVIDYADSVRGRFIISRDNAKNSLYLQMRSLRVEDTALYYCAKDIGKIVDFYGMDVWGQGTTVTVSS
chain 2: QSALTQPASVSGSPGQSITISCTGTSSDVGSYNYVSWYQQHPGKAPKLMIYDVRNRPSGVSNRFSGSKSGTTASLTISGLQAEDEADYYCSSYTNSSIVVFGGGTKLTVL
B11: BD56-1477 (protein)
chain 1: QVQLQESGPGLVRPSETLSLTCSVSGGSISHYYWNWIRQSPGKGLEWIGYVFYSGSTNYNPSLRSRVTILVDTSKNQFSLKLRSVTAADTALYYCARDRGHRSGWPDALDIWGQGTMVTVSS
chain 2: DIQMTQSPPSLSASVGDRVTITCQASQDITNYLNWYQQRPGKAPKLLIYDASNLETGVPSRFSGRGSGTDFTFTISSLQPEDIATYYCQQYDNIPWTFGQGTKVEIK
B12: BD56-1530 (protein)
chain 1: QVQLVESGGGVVQPGRSLRLSCAASGFTFINYSMHWVRQTPGRGLEWVAVISYEGRNKYYADSVEGRFTISRDNSKNTLYLQMNSLRIEDTAIYYCARADDSGSYYYVRFSPDYWGQGTLVSVSS
chain 2: DVVMTQSPLSLPVTLGQPASISCRSSQSLVYADGNTYLNWFHQRPGQSPRRLIYKVSNRDSGVPDRFSGSGSGTDFTLQISRVEAEDVGVYYCMQGTHWPPSFGGGTKVEIK

Target: SARS-CoV-2 Omicron BA.1 spike pseudovirus
Assay: pseudovirus neutralization IC50; higher = weaker neutralization
Procedure: (§1)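 Single-round VSV luciferase pseudovirus mixed with antibody dilutions for 1 h and put on Huh-7 cells for about a day; IC50 from the dose curve.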

Binder | pseudovirus neutralization IC50
B1 | 0.134 µg/mL
B2 | 1.4 µg/mL
B3 | > 10 µg/mL
B4 | > 10 µg/mL
B5 | 3.61 µg/mL
B6 | > 10 µg/mL
B7 | 0.0681 µg/mL
B8 | 0.029 µg/mL
B9 | > 10 µg/mL
B10 | 0.029 µg/mL
B11 | 0.262 µg/mL
B12 | 2.79 µg/mL

Target: SARS-CoV-2 Omicron BA.2 spike pseudovirus
Assay: as above
Procedure: as §1

Binder | pseudovirus neutralization IC50
B1 | 0.213 µg/mL
B2 | 2.06 µg/mL
B3 | > 10 µg/mL
B4 | > 10 µg/mL
B5 | 5.01 µg/mL
B6 | > 10 µg/mL
B7 | 0.0767 µg/mL
B8 | 0.242 µg/mL
B9 | 3.19 µg/mL
B10 | 0.033 µg/mL
B11 | 0.435 µg/mL
B12 | 3.17 µg/mL

Target: SARS-CoV-2 Omicron BA.2.75 spike pseudovirus
Assay: as above
Procedure: as §1

Binder | pseudovirus neutralization IC50
B1 | 0.111 µg/mL
B2 | 1.82 µg/mL
B3 | > 10 µg/mL
B4 | > 10 µg/mL
B5 | 4.58 µg/mL
B6 | > 10 µg/mL
B7 | > 10 µg/mL
B8 | 0.204 µg/mL
B9 | > 10 µg/mL
B10 | 0.0247 µg/mL
B11 | 0.474 µg/mL
B12 | 1.14 µg/mL

Target: SARS-CoV-2 Omicron BA.5 spike pseudovirus
Assay: as above
Procedure: as §1

Binder | pseudovirus neutralization IC50
B1 | > 10 µg/mL
B2 | 2.18 µg/mL
B3 | > 10 µg/mL
B4 | > 10 µg/mL
B5 | 4.67 µg/mL
B6 | > 10 µg/mL
B7 | 0.132 µg/mL
B8 | > 10 µg/mL
B9 | > 10 µg/mL
B10 | 0.489 µg/mL
B11 | > 10 µg/mL
B12 | 1.33 µg/mL

Target: SARS-CoV-2 Omicron BQ.1.1 spike pseudovirus
Assay: as above
Procedure: as §1

Binder | pseudovirus neutralization IC50
B1 | > 10 µg/mL
B2 | 3.14 µg/mL
B3 | > 10 µg/mL
B4 | > 10 µg/mL
B5 | 4.97 µg/mL
B6 | > 10 µg/mL
B7 | > 10 µg/mL
B8 | > 10 µg/mL
B9 | > 10 µg/mL
B10 | > 10 µg/mL
B11 | > 10 µg/mL
B12 | 0.908 µg/mL

Target: SARS-CoV-2 Omicron XBB spike pseudovirus
Assay: as above
Procedure: as §1

Binder | pseudovirus neutralization IC50
B1 | > 10 µg/mL
B2 | 5.52 µg/mL
B3 | > 10 µg/mL
B4 | > 10 µg/mL
B5 | 5.24 µg/mL
B6 | > 10 µg/mL
B7 | > 10 µg/mL
B8 | > 10 µg/mL
B9 | > 10 µg/mL
B10 | > 10 µg/mL
B11 | 1.38 µg/mL
B12 | 0.963 µg/mL

Target: SARS-CoV-2 early D614G spike pseudovirus
Assay: as above
Procedure: as §1

Binder | pseudovirus neutralization IC50
B1 | 0.117 µg/mL
B2 | 2.5 µg/mL
B3 | > 10 µg/mL
B4 | 0.144 µg/mL
B5 | 5.53 µg/mL
B6 | > 10 µg/mL
B7 | 0.00817 µg/mL
B8 | 0.304 µg/mL
B9 | 0.00272 µg/mL
B10 | 0.00374 µg/mL
B11 | 0.0216 µg/mL
B12 | > 10 µg/mL
